# PubChem BioAssay AID504761, Drosophila RNAi Screening Center – 2011
# Test: 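Genome-wide fly cell screen for genes dengue virus requires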 (primary screen)
# Cell system: D.Mel-2 cells from Drosophila
# Reagents: long dsRNA against Drosophila genes
# Conditions: infection with dengue virus type 2; dose and infection time not stated
# Read-out: 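Cells stained for dengue envelope protein and imaged; percent of infected cells per well on duplicate plates, ranked by infection, with stained nuclei counted for cell number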
# Scale: infection score: higher = more virus-infected cells; cell count: higher = more cells in the well
# Hit rule: 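Very low infection ranking in both replicate wells (chance probability at most 0.065), then a retest showing infection dropped 1.5-fold or more at p below 0.05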
# Meaning of the calls: active = confirmed: knock-down lowers infection; inactive = not picked or not confirmed
# The screen tested about 22,000 reagents; below is an unselected part of those with a known target gene and a result. Of all reagents, 116 (0.52%) got an active call. 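Calls depend on retest data that are not deposited; infection was ranked per plate without normalising between plates; the unit of the infection score is not given.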 Raw values vary from plate to plate and are shown uncorrected. Reagents against one gene are numbered here. Names joined by + are all predicted targets of the reagent. Not all columns of the deposit are shown. Not given: the amount of reagent, the time to read-out.
predicted target,dsRNA no.,"infection score, replicate 1","infection score, replicate 2","cell count, replicate 1",outcome
CG14070,1,2.22,1.65,6792,inactive
Argk2 (Arginine kinase 2),1,2.13,7.22,5628,inactive
Argk2 (Arginine kinase 2),2,2.99,21.8,6415,inactive
Argk2 (Arginine kinase 2),3,16.8,2.34,3631,inactive
CG12818,1,10.9,18.2,6187,inactive
CG5421,1,9.38,2.13,5629,inactive
CG5421,2,11.3,3.24,6271,inactive
Arfip (Arfaptin),1,24.7,15.9,6161,inactive
Arfip (Arfaptin),2,8.9,1.41,6931,inactive
CG43897,1,3.2,3.61,5785,inactive
CG43897,2,1.97,2.94,6509,inactive
Ubqn (Ubiquilin),1,13.4,4.87,3492,inactive
Ubqn (Ubiquilin),2,1.64,3.38,2736,inactive
CCHa2-R (CCHamide-2 receptor),1,6.79,8.44,6393,inactive
CCHa2-R (CCHamide-2 receptor),2,4.56,11.3,6488,inactive
Lime (Linking immunity and metabolism),1,3.46,5.67,6821,inactive
rho (rhomboid),1,5.38,3.76,5980,inactive
CG9119,1,6.31,10.6,5960,inactive
CG9119,2,2.58,2.33,7052,inactive
Ir67c (Ionotropic receptor 67c),1,3.35,1.35,6875,inactive
CG14020,1,2.07,1.51,6579,inactive
CG9095,1,11.8,7.28,7030,inactive
CG15445,1,9.87,6.48,6729,inactive
CG10147,1,2.85,9.16,6113,inactive
CG10147,2,7.55,26.2,2039,inactive
CG4911,1,7.33,14.5,5212,inactive
CG10834,1,3.97,4.83,6476,inactive
CG6701,1,15.3,17.2,5465,inactive
Ank (Ankyrin),1,17.3,4.93,6663,inactive
Ank (Ankyrin),2,26.4,8.14,5297,inactive
s-cup (stanley-cup),1,4.83,12.4,6811,inactive
s-cup (stanley-cup),2,5.19,18.1,6305,inactive
s-cup (stanley-cup),3,3.98,3.95,6632,inactive
CG9259,1,14.1,3.91,4950,inactive
mRpS35 (mitochondrial ribosomal protein S35),1,0.77,6.22,5097,inactive
CG3704,1,14.3,3.37,4412,inactive
CG3704,2,6.54,11.4,1605,inactive
CG3704,3,,10.4,354,inactive
Met75Ca + Met75Cb,1,2.31,1.85,5669,inactive
Met75Ca + Met75Cb,2,3.13,1.69,6813,inactive
CG2955,1,2.87,4.24,6105,inactive
Gnptab,1,7.02,3.94,6524,inactive
Mcr (Macroglobulin complement-related),1,5.02,2.65,6034,inactive
CG15034,1,9.27,8.29,6030,inactive
CG33969 + fbl,1,11.8,3.65,5973,inactive

The list goes on; the last 8 above are carried over.
predicted target,dsRNA no.,"infection score, replicate 1","infection score, replicate 2","cell count, replicate 1",outcome
CG3704,3,,10.4,354,inactive
Met75Ca + Met75Cb,1,2.31,1.85,5669,inactive
Met75Ca + Met75Cb,2,3.13,1.69,6813,inactive
CG2955,1,2.87,4.24,6105,inactive
Gnptab,1,7.02,3.94,6524,inactive
Mcr (Macroglobulin complement-related),1,5.02,2.65,6034,inactive
CG15034,1,9.27,8.29,6030,inactive
CG33969 + fbl,1,11.8,3.65,5973,inactive
CG12496,1,1.08,12.6,6658,inactive
CG12496,2,,,442,inactive
CG32262,1,5.67,3.67,6046,inactive
CG32262,2,2.32,23.2,517,inactive
CG14232,1,3.39,2.7,5959,inactive
CG14232,2,19.3,26.3,5710,inactive
ND-15 (NADH dehydrogenase (ubiquinone) 15 kDa subunit),1,6.12,7.93,5429,inactive
krz (kurtz),1,,11.8,402,inactive
p38c (p38c MAP kinase),1,0.72,7.17,6645,inactive
Obp83ef (Odorant-binding protein 83ef),1,1.84,5.71,6408,inactive
Obp83ef (Odorant-binding protein 83ef),2,4.92,10.7,6685,inactive
CG33502 + CG32857 + CG32500,1,1.2,5.2,6406,inactive
CG33502 + CG32857 + CG32500,2,2.34,0.97,5728,inactive
CG4679,1,8.29,9.81,5257,inactive
CG4679,2,16.8,4.1,4664,inactive
Tdh (L-threonine dehydrogenase),1,0.21,26.4,485,inactive
Vps8 (Vacuolar protein sorting 8),1,1.73,3.26,5886,inactive
CG13739,1,1.08,20.1,6228,inactive
CG13739,2,12.8,,1993,inactive
CG14230,1,2.95,2.34,5906,inactive
CG14230,2,13,19.8,5988,inactive
CG10340,1,3.85,11.1,6542,inactive
CG8388,1,4.37,10.3,6675,inactive
CG13796 + CG31904,1,2.87,7.63,766,inactive
ko (knockout),1,6.09,3.52,6399,inactive
ko (knockout),2,7.95,5.34,6392,inactive
hep (hemipterous),1,8.12,11.8,5150,inactive
hep (hemipterous),2,22.1,1.78,5076,inactive
hep (hemipterous),3,2.08,2.1,6913,inactive
